This note sets out measurements from patent publication US6468969B1, “Inhibition of HIV-1 replication using d-amino acid peptides” (priority 1997, dated 2002).

The chains behind the UniProt entries cited, without tags or fusion partners. Residues count along the entry.
UniProt P06873, 106-384: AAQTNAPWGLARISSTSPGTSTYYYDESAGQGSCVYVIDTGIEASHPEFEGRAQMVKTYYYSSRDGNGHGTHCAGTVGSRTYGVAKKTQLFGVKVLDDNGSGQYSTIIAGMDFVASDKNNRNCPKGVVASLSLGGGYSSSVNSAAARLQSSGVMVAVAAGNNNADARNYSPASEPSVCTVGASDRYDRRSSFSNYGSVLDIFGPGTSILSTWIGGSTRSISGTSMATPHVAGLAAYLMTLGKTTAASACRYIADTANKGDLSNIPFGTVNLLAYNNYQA

The target of this data set is proteinase K (Parengyodontium album, UniProt P06873). Kind of data set: Proteinase K digestion of peptide-TAR RNA photocrosslink products. The following applies: very vigorous proteinase K digestion. The protocol: For photochemical reactions, RNA duplex was prepared by hybridizing two strands ^24. Strand 1 of the duplex was 5′-end labeled with ^32P. Preformed RNA duplexes(0.02 μM) in the absence or presence of the peptide (0.1 μM) were irradiated ([…]) and analyzed by denaturing gels as described in Wang et al., Biochemistry 35, 6491-6499 (1996).

Consider `CC[C@H](C)[C@H](NC(=O)CNC(=O)[C@H](CC(C)C)NC(=O)[C@H](C)NC(=O)[C@H](CCCCN)NC(=O)[C@@H](NC(=O)[C@@H](NC(=O)[C@H](Cc1ccccc1)NC(=O)[C@@H](N)CS)[C@@H](C)O)[C@@H](C)O)C(=O)N[C@@H](CO)C(=O)N[C@@H](Cc1ccc(O)cc1)C(=O)NCC(=O)N[C@@H](CCCNC(=N)N)C(=O)N[C@@H](CCCCN)C(=O)N[C@@H](CCCCN)C(=O)N[C@@H](CCCNC(=N)N)C(=O)N[C@@H](CCCNC(=N)N)C(=O)N[C@@H](CCC(N)=O)C(=O)N[C@@H](CCCNC(=N)N)C(=O)N[C@@H](CCCNC(=N)N)C(=O)N[C@@H](CCCNC(=N)N)C(=O)N1CCC[C@H]1C(=O)N1CCC[C@H]1C(=O)N[C@@H](CCC(N)=O)C(=O)NCC(=O)N[C@@H](CO)C(=O)N[C@@H](CCC(N)=O)C(=O)N[C@H](C(=O)N[C@@H](Cc1c[nH]cn1)C(=O)N[C@@H](CCC(N)=O)C(=O)N[C@H](C(=O)N[C@@H](CO)C(=O)N[C@@H](CC(C)C)C(=O)N[C@@H](CO)C(=O)N[C@@H](CCCCN)C(=O)N[C@@H](CCC(N)=O)C(=O)O)C(C)C)[C@@H](C)O` [L-Tat(37-72)], for which the “protease stability of peptide-RNA crosslink products” value is reported as “complete loss of RNA-protein crosslinking”.
